Results of unrelated studies side by side (data: NIAID ChemDB).

All rows: tests in culture; agent: HIV-1

Blank or dashed fields: not listed here. Rows are shuffled and stem from different studies. ECn is the concentration giving n% inhibition of infection, replication or growth.

compound | cells | mutations | read by | strain or isolate | measure | value
S=C(NCCc1cccs1)Nc1ccc(Br)cn1 | PBMC | RT-M41L T215Y | p24 | R416-10 Clinical isolate NRTI-resistant | EC50 | 0.0011 µM
Fc1cccc(F)c1C1SCc2nc3ccccc3n21 | CEM + CEM-SS | RT-L100I | XTT | Dihydrocostatolide-resistant (RT-L100I) | EC50 | 22.8 µM
CC(C)=CCN1Cc2cc(Cl)cc3[nH]c(=S)n(c23)C[C@@H]1C | HT4 + HT4 LacZ-1 | RT-M41L Y181C T215Y | plaque count | HXB2 | EC50 | 2.8 µM
CC(C)CN(C[C@@H](O)[C@H](Cc1ccccc1)NC(=O)O[C@H]1CCOC1)S(=O)(=O)c1ccc(N)cc1 | PBMC | PR-M46I I47V I50V | p24 | HXB2 | EC50 | <1.94 µM
Cc1cn([C@H]2C[C@H](N=[N+]=[N-])[C@@H](CO)O2)c(=O)[nH]c1=O | CEM + CEM-SS | RT-V108I | XTT | Thiazolobenzimidazole-resistant (RT V108I) | EC50 | 0.04 µM
Cc1cn([C@H]2C=C[C@@H](CO)O2)c(=O)[nH]c1=O | Primary T lymphocytes | L74V | p24 / ELISA | - | EC50 | 0.9 µM
O=c1[nH]cnc2c1ncn2[C@H]1CC[C@@H](CO)O1 | MT-2 | RT-F77L F116Y Q151M | p24 | RT F77L/F116Y/Q151M | EC50 | 11 µM
CC(=O)N1CCC(C(=O)N(CCCN2CCC(Cc3ccc(C(N)=O)cc3)CC2)c2ccc(C)c(Cl)c2)CC1 | U87 (CD4+ CCR5+) + U87 | - | luciferase | R5 subtype B_3 recombinant | EC50 | 0.0013 µM
Nc1ncnc2c1ncn2[C@@H]1O[C@H](CO)C[C@@H]1F | MT-2 | RT-P119S | p24 | P119S(RT-P119S) | EC50 | 23 µM
COC(=O)[C@H](C)NP(=O)(OC[C@@H]1C=C[C@H](n2cc(C)c(=O)[nH]c2=O)O1)Oc1ccc(Br)cc1 | PBMC | RT-K20R D67N K70R Y188L T215F K219Q | p24 | C467-4 Clinical isolate ZDV-resistant | EC50 | 0.042 µM
Cc1ccc(NC(=O)Nc2ccc(-c3ccc(NC(=O)Nc4ccc(-c5ccc(NC(=O)Nc6ccc(-c7ccc(NC(=O)Nc8ccc(-c9ccc(NC(=O)Nc%10ccc(-c%11ccc(NC(=O)Nc%12ccc(C)cc%12)cc%11S(=O)(=O)O)c(S(=O)(=O)O)c%10)cc9S(=O)(=O)O)c(S(=O)(=O)O)c8)cc7S(=O)(=O)O)c(S(=O)(=O)O)c6)cc5S(=O)(=O)O)c(S(=O)(=O)O)c4)cc3S(=O)(=O)O)c(S(=O)(=O)O)c2)cc1 | JM | - | p24 | GB8 | EC50 | 0.16 µM
Cc1ccnc2c1NC(=O)c1cccnc1N2C1CC1 | MAGI | RT-V106I E138K P236L | β-galactosidase | NNRTI-resistant (RT V106I E138K P236L) | EC50 | 0.079 µM
Cc1cn([C@H]2C[C@H](N=[N+]=[N-])[C@@H](CO)O2)c(=O)[nH]c1=O | CEM + CEM-SS | RT-Y181C | cytopathic effect / XTT | IIIB | EC50 | 0.01 µM
CCCc1cc(=O)oc2c3c(c4c(c12)OC(C)(C)C=C4)O[C@H](C)[C@@H](C)[C@@H]3O | CEMx174 + CEM | - | XTT | IIIB | EC50 | 0.5 µM
CC(C)=CCN1Cc2cc(Cl)cc3[nH]c(=S)n(c23)C[C@@H]1C | MT-4 | - | antigen | MF | EC50 | ~0.1 µM
Cc1cn([C@H]2C[C@H](N=[N+]=[N-])[C@@H](CO)O2)c(=O)[nH]c1=O | MT-4 | - | antigen | IIIB/LAI | EC50 | 0.017 µM
Nc1ncnc2c1ncn2CCOCP(=O)(O)O | MT-2 | RT-M184V | p24 | M184V(RT-M184V) | EC50 | 1.1 µM
CCCc1cc(=O)oc2c3c(c4c(c12)OC(C)(C)C=C4)O[C@@H](C)[C@H](C)[C@@H]3O | PBMC | - | RT activity | WEJO | EC50 | 0.2 µM
Nc1nc(=O)n([C@@H]2CS[C@H](CO)O2)cc1F | Primary T lymphocytes | K65R | p24 / ELISA | - | EC90 | 2.4 µM
O=c1[nH]cnc2c1ncn2[C@H]1CC[C@@H](CO)O1 | PBMC | - | p24 | NL-XM WT | EC90 | 28 µM
C#C[C@]1(CO)O[C@@H](n2cnc3c(N)nc(F)nc32)C[C@@H]1O | MT4-GFP | T165A | fluorescence | Clinical isolate | EC50 | 0.0009 µM
Cc1ccnc2c1NC(=O)c1cccnc1N2C1CC1 | CEM + CEM-SS | RT-D67N K70R T215Y K219Q | cytopathic effect / XTT | 4xAZT(RT-D67N K70R T215Y K219Q) | EC50 | 0.02 µM
Cc1cn([C@H]2C[C@H](N=[N+]=[N-])[C@@H](CO)O2)c(=O)[nH]c1=O | CEM + CEM-SS | - | cytopathic effect / MTT | 214 | EC50 | 0.01 µM
CN1N=C(N)c2cn([C@@H]3O[C@H](COP(=O)(O)O)[C@@H](O)[C@H]3O)c3ncnc1c23 | - | - | syncytia | IIIB | EC50 | 0.01 µM
CC(C)CN(C[C@@H](O)[C@H](Cc1ccccc1)NC(=O)[C@H](CC(N)=O)NC(=O)c1ccc2ccccc2n1)C(=O)NC(C)(C)C | MT-4 | PR-L10R L63P V82T I84V | p24 | NL4-3 | EC95 | 0.8 µM
Nc1ccn([C@@H]2CS[C@H](CO)O2)c(=O)n1 | Primary T lymphocytes | - | p24 / ELISA | LAI | EC50 | 0.8 µM
Cc1cn([C@H]2C[C@H](N=[N+]=[N-])[C@@H](CO)O2)c(=O)[nH]c1=O | MT-4 | RT-K65R M184V | p24 | HXB2-D (RT K65R M184V) | EC50 | 0.013 µM
Cc1ccnc2c1NC(=O)c1cccnc1N2C1CC1 | MM + M/M | - | p24 | BaL | EC50 | 0.4 µM
Cc1cn([C@H]2C[C@H](N=[N+]=[N-])[C@@H](CO)O2)c(=O)[nH]c1=O | MT-2 | RT-L74V | p24 | L74V(RT-L74V) | EC50 | 0.015 µM
Nc1ccn([C@H]2CC[C@@H](CO)O2)c(=O)n1 | U-937 | - | syncytia | U455 | EC50 | 0.05 µM
Cc1cn([C@H]2C[C@H](N=[N+]=[N-])[C@@H](CO)O2)c(=O)[nH]c1=O | MT-4 | RT-M41L D67N K70R T215Y K219Q | p24 | XM-AZT-resistant | EC50 | <23 µM
CCc1c(Sc2ccccn2)n(COCc2ccccc2)c(=O)[nH]c1=O | AA5 | - | cytopathic effect / XTT | IIIB | EC50 | 0.04 µM
C[C@H](Cn1cnc2c(N)ncnc21)OCP(=O)(O)O | CEM | - | syncytia | IIIB | EC50 | 4.2 µM
Cc1c(Sc2ccccc2)n(COCCO)c(=O)[nH]c1=O | CEM + CEM-SS | RT-K103N Y181C | cytopathic effect / XTT | IIIB | EC50 | >325 µM
Cc1cn([C@H]2C[C@H](N=[N+]=[N-])[C@@H](CO)O2)c(=O)[nH]c1=O | C8166 | - | p24 | HXB2 | EC50 | 0.018 µM
Cc1cn([C@H]2C[C@H](N=[N+]=[N-])[C@@H](CO)O2)c(=O)[nH]c1=O | PBMC | RT-M41L L210W T215Y | p24 | Q252-2 Clinical isolate ZDV-resistant | EC50 | 1.7 µM
CC(=O)c1ccc(C)cc1NC(C(N)=O)c1c(Cl)cccc1Cl | MAGI | RT-V103A | MTT | IIIB | EC50 | 0.32 µM
C[C@H](Cn1cnc2c(N)nc(N)nc21)OCP(=O)(O)O | CEM | - | syncytia | HE | EC50 | 2 µM
Cc1c(O)cccc1C(=O)N[C@@H](CSc1ccccc1)[C@H](O)CN1C[C@H]2CCCC[C@H]2C[C@H]1C(=O)NC(C)(C)C | PBMC | PR-L10R M46I L63P V82T I84V | p24 | HXB2 | EC90 | 0.25 µM
O=C1N(Cc2ccc(CO)cc2)[C@H](Cc2ccccc2)[C@H](O)[C@@H](O)[C@@H](Cc2ccccc2)N1Cc1ccc(CO)cc1 | MT-4 | PR-M46I V82T I84V | p24 | NL4-3 | EC95 | 1.5 µM

Again, the opening 3 rows:

compound	cells	mutations	read by	strain or isolate	measure	value
S=C(NCCc1cccs1)Nc1ccc(Br)cn1	PBMC	RT-M41L T215Y	p24	R416-10 Clinical isolate NRTI-resistant	EC50	0.0011 µM
Fc1cccc(F)c1C1SCc2nc3ccccc3n21	CEM + CEM-SS	RT-L100I	XTT	Dihydrocostatolide-resistant (RT-L100I)	EC50	22.8 µM
CC(C)=CCN1Cc2cc(Cl)cc3[nH]c(=S)n(c23)C[C@@H]1C	HT4 + HT4 LacZ-1	RT-M41L Y181C T215Y	plaque count	HXB2	EC50	2.8 µM